Experimental findings from patent US20230374114A1, “Coronavirus antibodies and methods of use thereof” (Dana-Farber, published 2023) are described below.

The target in test [1] is P.1 Spike (SARS-CoV2).
The target of test [2] is B.1.1.7 Spike (SARS-CoV2).
For test [3], the target named is B.1.351 Spike (SARS-CoV2). Put plainly: biosensor kinetics; scFv-Fc loaded at 1 ug/ml, spike as analyte at 48.5 nM.

B1: S1-RBD-R3-T1-F9 Ab (Ab_39) (scFv, V domains shown)
VH: QVTLKESGPTLVKPTQTLTLTCTLSGVSLDTIGMRVSWIRQPPGKALEWLARIDWDDDKFYSTALKTRLTISKDTSKNQVVFTMTSMDPVDTATYYCARSGLLYDLDVWGRGTLVTVSS
VL: QSVVTQPPSVSGAPGQRVTISCTGSDSDIGANFVQWYQQLPGTAPKLLIWRNTNRPSGVPDRFSASKSGTSASLAITGLQAEDEADYFCQSYDSSLSAYVFGGGTKVTVL
notes: also called Ab 39 scFv-Fc
As a reminder, the Kd is the constant that tells how readily two partners part at equilibrium. For the molecule B1, the dissociation constant Kd is 0.0112 nM in test [1], less than 1 pM in test [2] and 1.83 pM in test [3]. Also, the Response in test [1] was found to be 0.158; in test [2] it was 0.293; in test [3], 0.167.
